This data set deals with the molecule itself. The data set can be described thus: […] (50 mM Tris HCl, pH 7.4, 10 mM MgCl2), […].

B1: Helicobacter pylori J99 ferritin (natural protein)
chain: MLSKDIIKLLNEQVNKEMNSSNLYMSMSSWCYTHSLDGAGLFLFDHAAEEYEHAKKLIIFLNENNVPVQLTSISAPEHKFEGLTQIFQKAYEHEQHISESINNIVDHAIKSKDHATFNFLQWYVAEQHEEEVLFKDILDKIELIGNENHGLYLADQYVKGIAKSRKS
notes: also called Hpf; ferritin-based nanoparticle; source: E. coli BL21 (DE3), purified (heat precipitation 65 °C, SEC); copies: 24
As to B1, the binding result is on record as “binds”.
